Data on 1 compound can be found in article PMC9363231, “High‐resolution analysis of individual spike peptide‐specific CD4 ^+ T‐cell responses in vaccine recipients and COVID‐19 patients” (Clinical & Translational Immunology, 2022).

Structures are written as SMILES.

Targets include HLA-DRB1*03:01 (Homo sapiens, UniProt P01903+P01911, A100K/A102G/A103R/A169T/F55Y/I96L/K41T/L162R/M171V/P40S/Q125H/Q178H/Q39Y/R42S/S66N/T106N/T262R/W38E/Y61H); HLA-DRB1*01:01 (Homo sapiens, UniProt P01903+P01911, A100R/D57E/F55L/F60I/F76Y/I96L/L162R/M171V/P40L/Q125E/R42F/V115G/Y59C); HLA-DRB1*07:01 (Homo sapiens, UniProt P01903+P01911, A100R/A102G/A103Q/D57E/D86V/E43K/F76Y/K127E/L162R/M171V/P40G/Q125H/Q99D/R33Q/R42Y/R54Q/S133A/S66F/T210M/V115G/Y107V/Y59L/Y89S); HLA-DRB1*08:02 (Homo sapiens, UniProt P01903+P01911, A100R/A103L/A169T/F76Y/H45Y/I96F/K41T/L162R/M171V/P40S/Q125H/Q178H/Q39Y/Q99D/R218S/R42G/S66Y/V115G/W38E); HLA-DRB1*04:01 (Homo sapiens, UniProt P01903+P01911, A100K/A169T/F76Y/I96L/K127E/L162R/M171V/N62H/P40V/Q125Y/R42H/S133A/S149N/S66Y/V115G/V209L/W38E); HLA-DRB1*04:05 (Homo sapiens, UniProt P01903+P01911, A100R/A169T/D86S/F76Y/I96L/K127E/L162R/M171V/N62H/P40V/Q125Y/R42H/S133A/S149N/S66Y/V115G/V209L/W38E); HLA-DRB1*12:01 (Homo sapiens, UniProt P01903+P01911, A100R/A169T/D57E/D86V/F55L/H45Y/K41T/L162R/M171V/P40S/Q125H/Q178H/Q39Y/Q99D/R42G/S66L/T262R/V114A/V67L/W38E/Y59H/Y61H/Y89S); HLA-DRB1*11:01 (Homo sapiens, UniProt P01903+P01911, A100R/A169T/A87E/I96F/K41T/L162R/M171V/P40S/Q125H/Q178H/Q39Y/Q99D/R42S/S66Y/T262R/V115G/W38E); HLA-DRB1*09:01 (Homo sapiens, UniProt P01903+P01911, A100R/A103E/D57H/D86V/F55Y/F60I/F76Y/I96F/K127E/L162R/M171V/P40D/Q125H/Q99R/R33Q/R42F/S133A/S66N/T210M/V115G/W38K/Y107V/Y59G/Y89S); HLA-DRB1*13:02 (Homo sapiens, UniProt P01903+P01911, A100E/A169T/K41T/L162R/M171V/P40S/Q125H/Q178H/Q39Y/Q99D/R42S/S66N/T262R/V115G/W38E/Y61H).

Common to all, as to assay: biochemical
Common to all, as to type: binding

The IC50 is the point on the concentration scale where inhibition reaches its midpoint. The low end stands for inhibition by little substance, the high end for a need for much substance. On to `CC[C@H](C)[C@H](NC(=O)[C@H](CCCNC(=N)N)NC(=O)[C@H](CCCCN)NC(=O)[C@H](CCCNC(=N)N)NC(=O)[C@H](CC(N)=O)NC(=O)[C@H](Cc1c[nH]c2ccccc12)NC(=O)[C@H](C)NC(=O)[C@@H](N)Cc1ccc(O)cc1)C(=O)N[C@@H](CO)C(=O)N[C@@H](CC(N)=O)C(=O)N[C@@H](CS)C(=O)N[C@H](C(=O)N[C@@H](C)C(=O)N[C@@H](CC(=O)O)C(=O)N[C@@H](Cc1ccc(O)cc1)C(=O)O)C(C)C` [compound 71], for which the IC50 is above 40 µM against HLA-DRB1*03:01; 22 µM against HLA-DRB1*01:01; above 40 µM against HLA-DRB1*07:01; 0.852 µM against HLA-DRB1*08:02; 0.865 µM on HLA-DRB1*04:01; 3.81 µM against HLA-DRB1*04:05. For the same compound, the IC50 against HLA-DRB1*12:01 was 3.67 µM; against HLA-DRB1*11:01, 0.037 µM; at HLA-DRB1*09:01, above 40 µM; on HLA-DRB1*13:02 it was 12.7 µM.
